Measured values from several laboratories, pooled; numbers as filed in NIAID ChemDB.

Common to all: whole-cell or culture tests; species: Mycobacterium smegmatis

Lines come from different laboratories, so protocols vary. A number after MIC or MFC names an inhibition level or a share of isolates. Zone: diameter of growth inhibition.

Cc1c(N2CCC[C@H](N)C2)c(F)cn2c(=O)c(C(=O)O)cc(C3CC3)c12 ; strain: ATCC114 ; endpoint: MIC ; value: 0.1 µg/mL
Cc1nn(-c2ccccc2)c2c1C(c1cn(-c3ccccc3)nc1-c1ccc(Cl)cc1)C1=C(NC(C)(c3cc(O)c(I)cc3Cl)NC1=O)O2 ; strain: NCIM 5138 ; method: agar diffusion / agar ; dose: 0.5 mg/mL ; endpoint: zone ; value: 5 mm
C[C@H]1NCc2cc(-c3ccc4c(=O)c(C(=O)O)cn(C5CC5)c4c3OC(F)F)ccc21 ; strain: 6 strains ; endpoint: Median MIC ; value: 0.13 µg/mL
COC(=O)Cc1ccc2[nH]c3ccc(OC)cc3c2c1 ; method: resazurin / visual reading / absorbance ; endpoint: MIC99 ; value: >500 µg/mL
COCOCC1CCCN(c2c(F)cn3c(=O)c(C(=O)O)cc(C4CC4)c3c2C)C1.Cl ; strain: ATCC114 ; endpoint: MIC ; value: 3.1 µg/mL
CC(C)N1CCN(c2c(F)cc3c(=O)c(C(=O)O)cn(C4CC4)c3c2F)CC1 ; strain: KD1990 (GYRA D95A) ; endpoint: MIC99 ; value: 2.4 µg/mL
Cc1ccc(-c2ccc3[nH]c4cc(C(C)C(=O)O)ccc4c3c2)cc1 ; method: resazurin / visual reading / absorbance ; endpoint: MIC99 ; value: >500 µg/mL
CCN1CCN(c2c(F)cc3c(=O)c(C(=O)O)cn(C4CC4)c3c2F)CC1 ; strain: KD2003 (GYRA D95G) ; endpoint: MIC99 ; value: 2.6 µg/mL
COc1ccc(-c2nn(-c3ccccc3)cc2C2C3=C(NC(C)(c4cc(O)ccc4Cl)NC3=O)Oc3c2c(C)nn3-c2ccccc2)cc1 ; strain: NCIM 5138 ; method: agar diffusion / agar ; dose: 1 mg/mL ; endpoint: zone ; value: 5.2 mm
COC(=O)Cc1ccc2[nH]c3ccc(Cl)cc3c2c1 ; method: resazurin / visual reading / absorbance ; endpoint: MIC99 ; value: >500 µg/mL
COc1c(N2CCNCC2)c(F)cc2c(=O)c(C(=O)O)cn(C3CC3)c12 ; strain: KD2012 (GYRA G89A) ; endpoint: MIC99 ; value: 0.18 µg/mL
Cc1nn(-c2ccccc2)c2c1C(c1cn(-c3ccccc3)nc1-c1ccc(Cl)cc1)C1=C(NC(C)(c3cc(O)c(Cl)c(O)c3)NC1=O)O2 ; strain: NCIM 5138 ; method: agar diffusion / agar ; dose: 0.5 mg/mL ; endpoint: zone ; value: 5.2 mm
C=CC1CN2CCC1CC2C[C@H](O)c1ccnc2ccc(OC)cc12 ; strain: ATCC 607 ; method: broth dilution ; endpoint: MIC99 ; value: >200 µg/mL
Cc1c(N2C[C@@H](C)N[C@@H](C)C2)c(F)cn2c(=O)c(C(=O)O)cc(C3CC3)c12.Cl ; strain: ATCC114 ; endpoint: MIC ; value: 0.2 µg/mL
C[C@H]1COC2(CCN(c3nc(=O)c4cc(C(F)(F)F)cc(C(=O)O)c4s3)CC2)O1 ; strain: GM22 ; method: resazurin ; endpoint: MIC99 ; value: 0.031 µg/mL
Cc1c(N2C[C@@H]3CCC[C@H](N)[C@H]3C2)c(F)cn2c(=O)c(C(=O)O)cc(C3CC3)c12.Cl ; strain: ATCC114 ; endpoint: MIC ; value: 0.1 µg/mL
CC(C(=O)O)c1ccc2c(c1)[nH]c1ccc(Cl)cc12 ; method: resazurin / visual reading / absorbance ; endpoint: MIC99 ; value: 500 µg/mL
Cc1nn(-c2ccccc2)c2c1C(c1cn(-c3ccccc3)nc1-c1ccc(F)cc1)C1=C(NC(C)(c3cc(O)cc(O)c3)NC1=O)O2 ; strain: NCIM 5138 ; method: agar diffusion / agar ; dose: 0.5 mg/mL ; endpoint: zone ; value: 5.5 mm
CC(C)N1CCN(c2cc3c(cc2F)c(=O)c(C(=O)O)cn3C2CC2)CC1 ; strain: KD2003 (GYRA D95G) ; endpoint: MIC99 ; value: 4.3 µg/mL
CC[C@H](NC)[C@@H]1CCN(c2c(F)cn3c(=O)c(C(=O)O)cc(C4CC4)c3c2C)C1.Cl ; strain: ATCC114 ; endpoint: MIC ; value: 0.01 µg/mL
O=C(O)c1cc(C(F)(F)F)cc2c(=O)nc(N3CCN(CC4CCCCC4)CC3)sc12 ; strain: MN84 ; method: resazurin ; endpoint: MIC99 ; value: >100 µg/mL
CCC1CN(c2cc3c(cc2F)c(=O)c(C(=O)O)cn3C2CC2)CCN1 ; strain: KD1990 (GYRA D95A) ; endpoint: MIC99 ; value: 2.6 µg/mL
CC(C(=O)O)c1ccc2c(c1)[nH]c1ccc(N3CCOCC3)cc12 ; method: resazurin / visual reading / absorbance ; endpoint: MIC99 ; value: >250 µg/mL
Cc1nn(-c2ccccc2)c2c1C(c1cn(-c3ccccc3)nc1-c1ccc(Cl)cc1)C1=C(NC(C)(c3cc(O)cc(O)c3)NC1=O)O2 ; strain: NCIM 5138 ; method: agar diffusion / agar ; dose: 1 mg/mL ; endpoint: zone ; value: 3.2 mm
COc1nc2ccc(Br)cc2cc1[C@@H](c1ccccc1)[C@@](O)(CCN(C)C)c1cccc2ccccc12 ; strain: delta-cyt-aa3 ; method: broth dilution ; endpoint: MIC80 ; value: 0.12 µM